A mixed list of measured activities; the numbers were collected in NIAID ChemDB.

All rows: enzyme or target tests

Percent inhibition refers to the dose given; in toxicity tests it is the harm to the cells.

smiles | measure | strain | target | tested at | organism | result
O=C(O)[C@H](Cc1ccccc1)N(Cc1ccc(-c2cccc(F)c2)o1)C(=O)c1ccc(Cl)cc1Cl | IC50 | - | RNA-dependent RNA polymerase | - | Hepatitis C virus | <5 µM
O=C(O)c1cc2nc(-c3cccc(Cl)c3)cc(-c3ccccc3OCc3ccccc3)n2n1 | IC50 | - | RNA-dependent RNA polymerase | - | Hepatitis C virus | 1–10 µM
CCC(C)[C@H](NC(=O)[C@H](CC(C)C)NC(=O)CCC(=O)O)C(=O)N[C@@H](CC1CCCCC1)C(=O)N[C@@H](CS)C(=O)O | inhibition | - | Nonstructural protein 3 NTPase/helicase | 167 µM | Hepatitis C virus | 91%
CNC(=O)c1c(-c2ccc(F)cc2)oc2cc(N3CCOCC3)c(OCc3cccc(C(=O)O)c3)cc12 | IC50 | - | Nonstructural protein 5B | - | Hepatitis C virus | ≤0.5 µM
CC[C@@H](C=O)NC(=O)[C@H](CC(C)C)NC(=O)[C@@H](NC(=O)[C@@H](NC(=O)c1cnccn1)C(C)C)C(C)C | Ki | - | NS3 protease | - | Hepatitis C virus | 1–100 µM
COc1ccc(CCC2(C3CCCC3)CC(=O)C(C(=O)Cc3ccccc3)C(=O)O2)cc1 | IC50 | - | Nonstructural protein 5B | - | Hepatitis C virus | 10–50 µM
CC(C)N(C(=O)c1ccc(Cl)cc1O)c1cc(-c2ccccc2)sc1C(=O)O | IC50 | - | NS3 ATPase | - | Hepatitis C virus | <5 µM
O=C(O)c1cc2nc(-c3ccc(Cl)cc3)cc(-c3ccsc3)n2n1 | IC50 | - | RNA-dependent RNA polymerase | - | Hepatitis C virus | >10 µM
COc1nc(Nc2ccc3[nH]ncc3c2)nc(N2CCN(CCO)CC2)n1 | inhibition | - | DNA polymerase | 0.1 µg/mL | Hepatitis B virus | 26%
O=C(Nc1ccsc1-c1nc(C(=O)O)c(O)c(=O)[nH]1)NC(Cc1ccccc1)c1ccccc1 | IC50 | - | HCV polymerase | - | Hepatitis C virus | <25 µM
O=C(O)[C@H](Cc1ccccc1)N(Cc1ccc(-c2cccc(C(F)(F)F)c2)o1)C(=O)c1ccc(Cl)cc1Cl | IC50 | - | RNA-dependent RNA polymerase | - | Hepatitis C virus | <5 µM
O=C(Nc1cscc1-c1nc(C(=O)O)c(O)c(=O)[nH]1)NC(Cc1ccccc1)c1ccccc1 | IC50 | - | HCV polymerase | - | Hepatitis C virus | <25 µM
O=C(O)c1ccccc1-c1ccc(CN(C(=O)c2ccc(Cl)cc2Cl)[C@@H](Cc2ccccc2)C(=O)O)o1 | IC50 | - | RNA-dependent RNA polymerase | - | Hepatitis C virus | <5 µM
COc1ccc(SC2=C(O)CC(CCc3ccc(OC(C)C)c(Cl)c3)(C3CCCC3)OC2=O)cc1 | IC50 | - | Nonstructural protein 5B | - | Hepatitis C virus | <1 µM
COc1nc(Nc2ccc3cn[nH]c3c2)nc(N2CCCC2)n1 | inhibition | - | DNA polymerase | 0.1 µg/mL | Hepatitis B virus | 30%
CNC(=O)c1c(-c2ccc(F)cc2)oc2cc(N(Cc3c(C)noc3C)S(C)(=O)=O)c(OC)cc12 | IC50 | - | Nonstructural protein 5B | - | Hepatitis C virus | ≤0.5 µM
CCC(C)[C@H](NC(=O)[C@@H](NC(=O)CCCC(=O)O)C1CCCCC1)C(=O)N[C@@H](CC1CCCCC1)C(=O)N[C@@H](CS)C(=O)O | IC50 | - | Nonstructural protein 3 NTPase/helicase | - | Hepatitis C virus | <16.7 µM
Cc1cc(C(=O)N(C)c2cc(-c3ccccc3)sc2C(=O)O)ccc1Br | IC50 | - | NS3 ATPase | - | Hepatitis C virus | <5 µM
O=C(O)[C@H](Cc1ccccc1)N(Cc1cc(-c2ccc(Cl)c(Cl)c2)cs1)C(=O)c1ccc(Cl)cc1Cl | IC50 | - | RNA-dependent RNA polymerase | - | Hepatitis C virus | <5 µM
O=C(O)c1cc2nc(-c3ccc(Cl)cc3)c(-c3ccccc3)cn2n1 | IC50 | - | RNA-dependent RNA polymerase | - | Hepatitis C virus | >10 µM
O=C(NCCn1cccn1)Nc1cscc1-c1nc(C(=O)O)c(O)c(=O)[nH]1 | IC50 | - | HCV polymerase | - | Hepatitis C virus | <25 µM
COc1nc(NCCN(C)C)nc(Nc2ccc3[nH]ncc3c2)n1 | inhibition | - | DNA polymerase | 0.01 µg/mL | Hepatitis B virus | 31%
CNC(=O)c1c(-c2ccc(F)cc2)oc2cc(N3CCOCC3)c(OCc3nccn3Cc3ccccc3)cc12 | IC50 | - | Nonstructural protein 5B | - | Hepatitis C virus | ≤0.5 µM
CC[C@@H](C=O)NC(=O)[C@@H]1C[C@@H](OC(=O)C(C)C)CN1C(=O)[C@@H](NC(=O)[C@@H](NC(=O)c1cnccn1)C(C)C)C(C)C | Ki | - | NS3 protease | - | Hepatitis C virus | 1–100 µM
O=C1OC(CCc2ccc(O)cc2)(C2CCCC2)CC(O)=C1N(c1ccccc1)c1ccccc1 | IC50 | - | Nonstructural protein 5B | - | Hepatitis C virus | 1–10 µM
CC(C)(C)c1ccc(CN(C(=O)CC2CCCC2)c2cc(-c3ccccc3)sc2C(=O)O)cc1 | IC50 | - | NS3 ATPase | - | Hepatitis C virus | <5 µM
N#CCCCOc1cccc(-c2nc(C(=O)O)c(O)c(=O)[nH]2)c1 | IC50 | - | HCV polymerase | - | Hepatitis C virus | <100 µM
O=C(O)[C@H](Cc1ccccc1)N(Cc1cc(-c2ccc(F)c(Cl)c2)cs1)C(=O)c1ccc(Cl)cc1Cl | IC50 | - | RNA-dependent RNA polymerase | - | Hepatitis C virus | <5 µM
O=C(NCCc1ccccc1Cl)Nc1ccsc1-c1nc(C(=O)O)c(O)c(=O)[nH]1 | IC50 | - | HCV polymerase | - | Hepatitis C virus | <25 µM
COc1nc(NCCCN2CCOCC2)nc(Nc2ccc3[nH]ncc3c2)n1 | inhibition | - | DNA polymerase | 0.1 µg/mL | Hepatitis B virus | 39%
CC[C@@H](C=O)NC(=O)[C@@H]1C[C@@H](OCc2ccccc2)CN1C(=O)[C@@H](NC(=O)c1cc(C)oc1C)C(C)C | Ki | - | NS3 protease | - | Hepatitis C virus | >100 µM
COc1nc(Nc2ccc3cn[nH]c3c2)nc(N2CCOCC2)n1 | inhibition | - | DNA polymerase | 0.01 µg/mL | Hepatitis B virus | 30%
O=C(O)c1sc(-c2ccccc2)cc1NS(=O)(=O)c1ccc([N+](=O)[O-])cc1 | IC50 | - | NS3 ATPase | - | Hepatitis C virus | 5–20 µM
CNC(=O)c1c(-c2ccc(F)cc2)oc2cc(N(C)C3CC3)c(OC(C)C)cc12 | IC50 | - | Nonstructural protein 5B | - | Hepatitis C virus | ≤0.5 µM
COc1nc(NCCCN2CCOCC2)nc(Nc2ccc3cn[nH]c3c2)n1 | inhibition | - | DNA polymerase | 1 µg/mL | Hepatitis B virus | 83%
Cc1ccc(C(=O)N(c2cc(-c3ccccc3)sc2C(=O)O)C(C)C)cc1F | IC50 | - | NS3 ATPase | - | Hepatitis C virus | <5 µM
c1ccc(-c2cnc3c(-c4nn[nH]n4)cnn3c2-c2ccccc2)cc1 | IC50 | - | RNA-dependent RNA polymerase | - | Hepatitis C virus | >10 µM
CC[C@H](C)[C@H](NC(=O)[C@H](CC(C)C)NC(=O)CCC(=O)O)C(=O)N[C@@H](CC1CCCCC1)C(=O)NC1(C(=O)O)CC1 | inhibition | - | Nonstructural protein 3 NTPase/helicase | 167 µM | Hepatitis C virus | 7–19%
O=C(O)c1nc(-c2cccc(O)c2)[nH]c(=O)c1O | IC50 | - | HCV polymerase | - | Hepatitis C virus | <100 µM
O=C(O)CCC(=O)N[C@H](C(=O)N[C@@H](CCC(=O)O)C(=O)N[C@@H](CCC(=O)O)C(=O)NC1(C(=O)O)CC1)C(c1ccccc1)c1ccccc1 | IC50 | - | Nonstructural protein 3 NTPase/helicase | - | Hepatitis C virus | >167 µM
O=C(O)c1cnn2c(-c3ccccc3-c3cccc(Cl)c3)ccnc12 | IC50 | - | RNA-dependent RNA polymerase | - | Hepatitis C virus | >10 µM
CCOC(=O)C(F)(F)C(=O)[C@H](CC)NC(=O)[C@@H]1C[C@@H](OCc2ccccc2)CN1C(=O)[C@@H](NC(=O)[C@@H](NC(=O)c1cnccn1)C(C)C)C(C)C | Ki | - | NS3 protease | - | Hepatitis C virus | >100 µM
COc1nc(NCCN2CCOCC2)nc(Nc2ccc3[nH]ncc3c2)n1 | IC50 | - | DNA polymerase | - | Hepatitis B virus | 0.1–1 µg/mL
CCCC(=O)N(Cc1ccccc1Cl)c1cc(-c2ccccc2)sc1C(=O)O | IC50 | - | NS3 ATPase | - | Hepatitis C virus | <5 µM
O=C(O)c1nc(-c2ccccc2NS(=O)(=O)c2ccc([N+](=O)[O-])cc2)[nH]c(=O)c1O | IC50 | - | HCV polymerase | - | Hepatitis C virus | <100 µM
CC(C)[C@H](NC(=O)[C@@H](NC(=O)CCC(=O)O)C1CCCCC1)C(=O)N[C@@H](CCC(=O)O)C(=O)NC1(C(=O)O)CC1 | IC50 | - | Nonstructural protein 3 NTPase/helicase | - | Hepatitis C virus | >167 µM
COc1nc(Nc2ccc3cn[nH]c3c2)nc(N2CCN(C)CC2)n1 | inhibition | - | DNA polymerase | 1 µg/mL | Hepatitis B virus | 53%
CC[C@H](NC(=O)[C@H](CC(C)C)NC(=O)[C@@H](NC(=O)[C@@H](NC(=O)c1cnccn1)C(C)C)C(C)C)C(=O)C(=O)N(CC)CC | Ki | - | NS3 protease | - | Hepatitis C virus | >100 µM
Cc1ccc(C(=O)N(Cc2ccc(Cl)cc2)c2cc(-c3ccccc3)sc2C(=O)O)cc1 | IC50 | - | NS3 ATPase | - | Hepatitis C virus | <5 µM
O=C(O)CCCC(=O)N[C@@H](CCC(=O)O)C(=O)N[C@@H](CCC(=O)O)C(=O)NC1(C(=O)O)CC1 | inhibition | - | Nonstructural protein 3 NTPase/helicase | 83.5 µM | Hepatitis C virus | 17%
COc1ccccc1CNC(=O)Nc1ccccc1-c1nc(C(=O)O)c(O)c(=O)[nH]1 | IC50 | - | HCV polymerase | - | Hepatitis C virus | <100 µM
CC(=O)N[C@H](C(=O)N[C@@H](CCC(=O)O)C(=O)N[C@@H](CCC(=O)O)C(=O)N[C@@H](CS)C(=O)O)C1CCCCC1 | inhibition | - | Nonstructural protein 3 NTPase/helicase | 16.7 µM | Hepatitis C virus | 50%
CCN(CC)c1nc(COc2cc3c(C(=O)NC)c(-c4ccc(F)cc4)oc3cc2N(C)S(C)(=O)=O)ns1 | IC50 | - | Nonstructural protein 5B | - | Hepatitis C virus | ≤0.5 µM
CC[C@@H](C=O)NC(=O)[C@@H]1C[C@@H](OCc2ccccc2)CN1C(=O)[C@@H](NC(=O)c1ccc(O)c(Cl)c1)C(C)C | Ki | - | NS3 protease | - | Hepatitis C virus | 1–100 µM
O=C(O)c1cccc(-c2ccc(CN(C(=O)c3ccc(Cl)cc3Cl)[C@@H](Cc3ccccc3)C(=O)O)o2)c1 | IC50 | - | RNA-dependent RNA polymerase | - | Hepatitis C virus | <5 µM
CC[C@@H](C=O)NC(=O)[C@@H]1C[C@@H](OCc2ccccc2)CN1C(=O)[C@@H](NC(=O)[C@H](Cc1cccnc1)NC(=O)c1cnccn1)C(C)C | Ki | - | NS3 protease | - | Hepatitis C virus | >100 µM
CCCN(C1=C(O)C[C@@](CCc2cccc(O)c2)(C2CCCC2)OC1=O)c1ccccc1 | IC50 | - | Nonstructural protein 5B | - | Hepatitis C virus | 1–10 µM
C=C1[C@H](COP(=O)(O)OP(=O)(O)OP(=O)(O)O)[C@@H](O)C[C@@H]1n1cnc2c(=O)[nH]c(N)nc21 | IC50 | Polymerase mutant V553I | DNA polymerase | - | Hepatitis B virus | 0.00067 µM
CNC(=O)c1c(-c2ccc(F)cc2)oc2cc(N(CC(C)=O)S(C)(=O)=O)c(OC(C)C)cc12 | IC50 | - | Nonstructural protein 5B | - | Hepatitis C virus | ≤0.5 µM
CCOC(=O)N1CCN(c2nc(Nc3ccc4[nH]ncc4c3)nc(OC)n2)CC1 | inhibition | - | Nonstructural protein 5B | 1 µg/mL | Hepatitis C virus | 15%
CC[C@@H](C=O)NC(=O)[C@@H]1C[C@@H](NC(=O)c2ccc(Cl)c(Cl)c2)CN1C(=O)[C@@H](NC(=O)[C@@H](NC(=O)c1cnccn1)C(C)C)C(C)C | Ki | - | NS3 protease | - | Hepatitis C virus | 1–100 µM

For reference, 7 entries again:

smiles | measure | strain | target | tested at | organism | result
CC(C)N(C(=O)c1ccc(Cl)cc1O)c1cc(-c2ccccc2)sc1C(=O)O | IC50 | - | NS3 ATPase | - | Hepatitis C virus | <5 µM
O=C(Nc1ccsc1-c1nc(C(=O)O)c(O)c(=O)[nH]1)NC(Cc1ccccc1)c1ccccc1 | IC50 | - | HCV polymerase | - | Hepatitis C virus | <25 µM
N#CCCCOc1cccc(-c2nc(C(=O)O)c(O)c(=O)[nH]2)c1 | IC50 | - | HCV polymerase | - | Hepatitis C virus | <100 µM
O=C(O)c1cccc(-c2ccc(CN(C(=O)c3ccc(Cl)cc3Cl)[C@@H](Cc3ccccc3)C(=O)O)o2)c1 | IC50 | - | RNA-dependent RNA polymerase | - | Hepatitis C virus | <5 µM
O=C(O)c1cc2nc(-c3cccc(Cl)c3)cc(-c3ccccc3OCc3ccccc3)n2n1 | IC50 | - | RNA-dependent RNA polymerase | - | Hepatitis C virus | 1–10 µM
O=C(O)c1nc(-c2cccc(O)c2)[nH]c(=O)c1O | IC50 | - | HCV polymerase | - | Hepatitis C virus | <100 µM
CC(=O)N[C@H](C(=O)N[C@@H](CCC(=O)O)C(=O)N[C@@H](CCC(=O)O)C(=O)N[C@@H](CS)C(=O)O)C1CCCCC1 | inhibition | - | Nonstructural protein 3 NTPase/helicase | 16.7 µM | Hepatitis C virus | 50%

a–b is a range or a potency band. ICn is the concentration giving n% inhibition. An empty or dashed field is not shown. Rows are shuffled and stem from different studies.